Measured values published in article PMC5128878 (Scientific Reports, 2016).

Protein sequences, listed by entry. Tags and fused reporters are not part of them. Lines headed by an entry give the natural chain unless they say otherwise; changes in a name come on top. Residues count along the entry.
UniProt P02716, 25-520 limits assumed: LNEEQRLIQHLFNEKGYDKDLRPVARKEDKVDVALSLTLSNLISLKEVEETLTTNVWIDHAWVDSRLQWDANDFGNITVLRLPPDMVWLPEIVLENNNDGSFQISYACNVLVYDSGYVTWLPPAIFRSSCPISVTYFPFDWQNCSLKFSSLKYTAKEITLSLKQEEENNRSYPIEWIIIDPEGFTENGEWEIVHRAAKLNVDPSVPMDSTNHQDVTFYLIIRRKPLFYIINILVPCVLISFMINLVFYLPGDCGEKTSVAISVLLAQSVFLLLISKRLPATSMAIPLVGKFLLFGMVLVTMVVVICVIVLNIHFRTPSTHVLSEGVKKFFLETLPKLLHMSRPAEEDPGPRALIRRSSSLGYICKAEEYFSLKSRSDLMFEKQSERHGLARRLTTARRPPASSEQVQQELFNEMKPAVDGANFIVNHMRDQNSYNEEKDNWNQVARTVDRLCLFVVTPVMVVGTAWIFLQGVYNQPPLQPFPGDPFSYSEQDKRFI
UniProt P04760, 23-519 limits assumed: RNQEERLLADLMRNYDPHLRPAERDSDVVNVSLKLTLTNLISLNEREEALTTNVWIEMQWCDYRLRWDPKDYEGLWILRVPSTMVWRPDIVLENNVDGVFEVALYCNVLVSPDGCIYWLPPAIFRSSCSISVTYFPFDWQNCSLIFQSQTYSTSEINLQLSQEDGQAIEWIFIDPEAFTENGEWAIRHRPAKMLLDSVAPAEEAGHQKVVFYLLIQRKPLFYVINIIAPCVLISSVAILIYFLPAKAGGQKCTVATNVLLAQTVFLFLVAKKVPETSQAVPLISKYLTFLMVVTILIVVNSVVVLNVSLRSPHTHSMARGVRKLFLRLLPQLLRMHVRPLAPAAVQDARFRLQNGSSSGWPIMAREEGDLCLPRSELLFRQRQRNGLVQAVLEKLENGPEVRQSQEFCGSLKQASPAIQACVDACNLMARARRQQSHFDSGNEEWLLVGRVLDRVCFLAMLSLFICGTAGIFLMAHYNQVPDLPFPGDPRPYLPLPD
UniProt P09690, 24-501 limits assumed: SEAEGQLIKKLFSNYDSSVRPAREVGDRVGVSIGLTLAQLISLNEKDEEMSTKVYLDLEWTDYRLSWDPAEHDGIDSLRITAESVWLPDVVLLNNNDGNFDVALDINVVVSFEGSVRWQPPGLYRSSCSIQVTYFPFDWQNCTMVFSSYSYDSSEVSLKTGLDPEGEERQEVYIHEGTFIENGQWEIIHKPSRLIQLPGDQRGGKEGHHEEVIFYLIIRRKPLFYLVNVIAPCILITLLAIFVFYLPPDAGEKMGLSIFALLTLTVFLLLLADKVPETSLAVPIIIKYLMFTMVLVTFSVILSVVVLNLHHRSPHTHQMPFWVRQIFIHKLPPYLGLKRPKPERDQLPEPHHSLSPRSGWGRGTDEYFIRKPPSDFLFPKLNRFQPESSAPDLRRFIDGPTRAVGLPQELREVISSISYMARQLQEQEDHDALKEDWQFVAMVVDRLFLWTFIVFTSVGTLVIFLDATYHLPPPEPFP

How the values were obtained:
[1] = system: human muscle-type nAChRs in TE671 cells; settings: −100 mV ref 8; cited from earlier work
[2] = target: α1β1γδ nAChR (Mus musculus, UniProt P02716+P04756+P04760+P09690); experiment: Two-electrode voltage clamp of ACh currents, embryonic muscle-type α1β1γδ nAChRs expressed in Xenopus oocytes; type: cell-based; settings: late current

CCCC(=O)N[C@@H](Cc1ccc(O)cc1)C(=O)NCCCCCCCCCCCCN [PhTX-12]
selectivity over PhTX-343 [1]: 22 fold | selectivity over PhTX-343 ([2]; VH −60 mV): 257 fold | selectivity over PhTX-343 ([2]; VH −100 mV): 34 fold | selectivity (more potent) over PhTX-343 ([2]; −80 mV): 119 fold
